Data from paper PMC3413638.

Assays:
[1] = target: PhoP-P (phosphorylated PhoP) (UniProt P71814); test: EMSA; details: recombinant protein, protein details: His tag (pET15b) cleaved with thrombin, label: 5' IRD700 or DY682
[2] = target: PhoP-P (phosphorylated PhoP) (UniProt P71814); test: DNase I footprinting; details: recombinant protein, protein details: His tag (pET15b) cleaved with thrombin, label: 5' 32P forward strand, probe letters rebuilt from the primers and the genome
[3] = binding at 2 uM PhoP-P, probe letters rebuilt from the primers and the genome
[4] = about 50-70 bp protected, covers DRs
[5] = probe letters rebuilt from the primers and the genome

“TAGCACAGCCGCTTAGAACTAAAGAGCCACCAAAGACACAGCTACATCGAAGGATTGCTAGTTAGGCTACGTATCGCCTCCGGCATTGGGCTTGGGGTCGGC (double strand) [pks2d]”: binds [1, 3].

“ACCGCGGGCTGCCCATGCCACGACAAACCGAAGTAGGGCCCAGTGCCCCAGTAGCACAGCCGCTTAGAACTAAAGAGCCACCAAAGACACAGCTACATCGAAGGATTGCTAGTTAGGCTACGTATCGCCTCCGGCATTGGGCTTGGGGTCGGCGGCGTCAGGCACTGGTGCAGATAGGGGTGCATGGACGTTGGCTGA (double strand) [pks2 footprint probe]”: binds [2, 4].

“TAGCACAGCCGCTTAGAACTAAAGAGCCACCAAAGACACAGCTACATCGAAGGATTGCTAGTTAGGCTACGTATCGCCTCCGGCATTGGGCTTGGGGTCGGCGGCGTCAGGCACTGGTGCAGATAGGGGTGCATGGACGTTGGCTGA (double strand) [pks2]”: binds [1, 5].

“CGGACATTGGTGCTACATTACCGTTTCGCGCGATCTCCGATAACCCAAGCGGGCAGGGGGATGGTTGGCGATAGCGATGCTGATCATAACGTTCTGCAATGCTGTGCATGTGCTGAAACAGGTTGACGCAGAGTCGAAGTCGGTGTACGCAGGGGCGCCGTGAGGGGCGTCACGGTCGAGTTGCTAAGCCGTGCGTTCCAT (double strand) [fadD21 footprint probe]”: binds [2, 4].

“CGTCTGGTAGCGGCATGGCAACGGCCTGTGAGTTGGCTGGATAAT (double strand) [msl3a1]”: binds ([1]; binding at 2 uM PhoP-P).

“TACCAACACATTCGGGCTCAGGATTGTTTAGCGTACTAACTTCATGGTAGTGGCTCAAGACGAAAGCATCGCATGCTGCAAGGTCCGATACAACGGGAAAACTGTTGTGGGACTTGTTAATCTGCAGGCCACAGCACGACGAAGAACACATTATCCAGCCAACTCACAGGCCGTTGCCATGCCGCTACCAGACGTCGTAGGCCTGGGAAAGTTAAGGTAGCAACACTGCTCGAC (double strand) [msl3a]”: binds [1, 5].

“CATCAATCATTCGGTGGCGCGAAGTTCACCAGAGTCCCGGACACGCTCACGCGAACTACCTGCATTTAGGGGATCACAGGCACCTTGAAATGCATCGGTGTATGACTGGGAGTTTGCTGTACGTCTATTGGTAAGTGCGAATTCGCCGCCGGCTACCCGCACCCCGTAGAATCGCAAGCCGATATCGGC (double strand) [lipF footprint probe]”: binds ([2]; 30-35 bp protected, DR3 not protected).

“GACTGTTAGCAGACTACTGGCAACGAGCTTTCAGGAATTA (double strand) [Protect40]”: binds [1].

“CTGCGTACACCGACTTCGACTCTGCGTCAACCTGTTTCAGCACATGCACAGCATTGCAGAACGTTATGATCAGCATCGCTATCGC (double strand) [fadD21b]”: binds [1, 3].

“AGACGTACAGCAAACTCCCAGTCATACACCGATGCATTTCAAGGTGCCTGTGATCCCCTAAATGCAGG (double strand) [lipFa1]”: binds ([1]; binding at 2 uM PhoP-P).

“ATCAATCGCAAATCTCGCACTTCCCGTTTACGTAGTTGCTCCAACCAGACGCAGCCCAATTCGGGCTCCTCCCCCCATCAATCATTCGGTGGCGCGAAGTTCACCAGAGTCCCGGACACGCTCACGCGAACTACCTGCATTTAGGGGATCACAGGCACCTTGAAATGCATCGGTGTATGACTGGGAGTTTGCTGTACGTCTATTGGTAAGTGCGAATTCGCC (double strand) [lipFa]”: binds ([1]; complete shift at 8 uM PhoP-P (200:1), probe letters rebuilt from the primers and the genome).

“CGAAGAACACATTATCCAGCCAACTCACAGGCCGTTGCCATGCCGCTACCAGACGTCGTAGGCCTGGGAAAGTTAAGGTAGC (double strand) [msl3a2]”: binds [1, 3].

“GAGTCGGACATTGGTGCTACATTACCGTTTCGCGCGATCTCCGATAACCCAAGCGGGCAGGGGGATGGTTGGCGATAGCGATGCTGATCATAACGTTCTGCAATGCTGTGCATGTGCTGAAACAGGTTGACGCAGAGTCGAAGTCGGTGTACGCAGGGGCGCCGTGAGGGGCGTCACGGTCGAGTTGCTAAGCCGTGCGTTCCATGGCC (double strand) [fadD21]”: binds [1, 5].

“TCATGGTAGTGGCTCAAGACGAAAGCATCGCATGCTGCAAGGTCCGATACAACGGGAAAACTGTTGTGGGACTTGTTAATCTGCAGGCCACAGCACGACGAAGAACACATTATCCAGCCAACTCACAGGCCGTTGCCATGCCGCTACCAGACGTCGTAGGCCTGGGAAAGTTAAGGTAGCAACACTGCTCGACAGCCACAGCAGCATGCACCGCGCGTGTGA (double strand) [msl3 footprint probe]”: binds ([2]; about 50-70 bp protected, DR3 partial).

Construct, isoform or probe ends are uncertain for at least one entry.
